Pooled drug test results. Numbers come from NIAID ChemDB, via PubChem.

Common to all: whole-cell or culture tests

MIC50, MIC90 and the like: level of inhibition, or share of isolates inhibited.

structure	setting	method	changes	agent	tested at	read-out	strain or isolate	value
CC[C@H]1OC(=O)[C@H](C)[C@@H](O[C@H]2C[C@@](C)(OC)[C@@H](O)[C@H](C)O2)[C@H](C)[C@@H](O[C@@H]2O[C@H](C)C[C@H](N(C)C)[C@H]2O)[C@](C)(O)C[C@@H](C)CN(C)[C@H](C)[C@@H](O)[C@]1(C)O		broth dilution / visual reading		Mycobacterium abscessus		MIC100	DSM44196	1–2 µg/mL
CC(C)N=c1cc2n(-c3ccc(Cl)cc3)c3ccccc3nc-2cc1Nc1ccc(Cl)cc1		fluorescence		Mycobacterium scrofulaceum		MIC90		0.292 µg/mL
CCCCCCc1ccc(NC(=O)NNC(=O)c2ccncc2)cc1	14 d	broth dilution		Mycobacterium kansasii		MIC100	My 235/80	125 µM
O=c1oc2ccc(Br)cc2c(=S)n1-c1ccc(Cl)c(Cl)c1	14 d			Mycobacterium kansasii		MIC	6509/96	4 µM
O=C(NNC(=O)c1ccncc1)Nc1ccc(Cl)c(C(F)(F)F)c1	7 d	broth dilution		Mycobacterium kansasii		MIC100	My 235/80	62.5 µM
CC(C)(C)c1ccc(CCNc2ncnc3sccc23)cc1		luminescence		Mycobacterium bovis BCG		MIC50		>20 µM
Cc1ccc2oc(=O)n(-c3cccc(F)c3)c(=S)c2c1	14 d			Mycobacterium kansasii		MIC	6509/96	16 µM
CC1COc2c(N3CCN(C)CC3)c(F)cc3c(=O)c(C(=O)O)cn1c23				Mycobacterium fortuitum		MBC	ATCC 6841	4 µg/mL
NC[C@@H]1O[C@H](O[C@H]2[C@@H](O)[C@H](O[C@@H]3[C@@H](O)[C@H](N)C[C@H](N)[C@H]3O[C@H]3O[C@H](CN)[C@@H](O)[C@H](O)[C@H]3N)O[C@@H]2CO)[C@H](N)[C@@H](O)[C@@H]1O				Mycobacterium fortuitum		MIC90	31 isolates	16 µg/mL
NC1CCN(c2c(F)cc3c(=O)c(C(=O)O)cn(C4CC4)c3c2Cl)C1				Mycobacterium fortuitum		MIC	ATCC 6841	0.5 µg/mL
COC(=O)c1ccc2c(Nc3ccc(Oc4ccc(C(F)(F)F)cc4)cc3)ncnc2c1		luminescence		Mycobacterium bovis BCG		MIC50		>10 µM
[N-]=[N+]=N[C@H]1C[C@H](n2cc(F)c(=O)[nH]c2=O)O[C@@H]1CO		resazurin		Mycobacterium bovis	100 µg/mL	inhibition	BCG	0%
NC[C@H]1O[C@H](O[C@H]2[C@H](O)[C@@H](O[C@H]3O[C@H](CO)[C@@H](O)[C@H](N)[C@H]3O)[C@H](N)C[C@@H]2N)[C@H](N)C[C@@H]1O				Mycobacterium fortuitum		MIC50	31 isolates	64 µg/mL
O=C(NNC(=O)c1ccncc1)Nc1ccc(Cl)c(Cl)c1	7 d	broth dilution		Mycobacterium kansasii		MIC100	My 6509/96	125 µM
FC(F)(F)c1cccc(Oc2ccc(Nc3ncnc4ccoc34)cc2)c1		luminescence		Mycobacterium bovis BCG		MIC50		>20 µM
O=C(NNC(=O)c1ccncc1)Nc1c(Cl)cc(Cl)cc1Cl	7 d	broth dilution		Mycobacterium kansasii		MIC100	My 6509/96	125 µM
NNC(=O)c1ccncc1				Mycobacterium avium complex		MIC	N-265 (HIV-)	1 µg/mL
FC(F)(F)c1ccc(-c2ccc(CNc3ncnc4ccccc34)cc2)nc1		luminescence		Mycobacterium bovis BCG		MIC50		>20 µM
Nc1ccc(S(=O)(=O)c2ccc(N)cc2)cc1				Mycobacterium avium complex		MIC	DW30	32 µg/mL
COc1c(NC(=O)c2ccc(NC(=O)c3ccc(NC(=O)[C@H](Cc4cn[nH]n4)NC(=O)c4ccc(NC(=O)/C(C)=C/c5ccc(O)cc5)cc4)cc3Br)c(OC)c2O)ccc(C(=O)O)c1O		resazurin		Mycobacterium luteus		MIC	130.21	0.5 µg/mL
Fc1ccc2c(Nc3ccc(Br)cn3)ncnc2c1		luminescence		Mycobacterium bovis BCG		MIC50		>20 µM
CCc1cn([C@H]2C[C@H](O)[C@@H](CO)O2)c(=O)[nH]c1=O		resazurin		Mycobacterium bovis	100 µg/mL	inhibition	BCG	0%
Cc1ccn2c(C(=O)NCc3ccc(N4CCN(C5CN(CC(F)(F)F)C5)[C@@H](C)C4)c(F)c3)c(C)nc2c1		fluorescence		Mycobacterium avium	0.96 µM	inhibition		85%
FC(F)(F)c1ccc(CNc2ncnc3ccccc23)c(N2CCOCC2)c1		luminescence		Mycobacterium bovis BCG		MIC50		>10 µM
Cc1cc(C)n(C(=O)C2CC(=O)N(c3cccc(OC4=C(Cl)C(=O)c5ccccc5C4=O)c3)C2)n1				Mycobacterium luteum		MIC	B-917	250 µg/mL
Cc1nc2ccc(Cl)cn2c1C(=O)NCc1ccc(N2CCN(c3ccc(OC(F)(F)F)cc3)[C@@H](C)C2)c(Cl)c1.Cl		fluorescence		Mycobacterium avium	0.0057 µM	inhibition		85%
CC[C@H]1OC(=O)[C@H](C)[C@@H](O[C@H]2C[C@@](C)(OC)[C@@H](O)[C@H](C)O2)[C@H](C)[C@@H](O[C@@H]2O[C@H](C)C[C@H](N(C)C)[C@H]2O)[C@](C)(OC)C[C@@H](C)C(=O)[C@H](C)[C@@H](O)[C@]1(C)O				Mycobacterium avium intracellulare		MIC	N-752 (HIV-)	0.125 µg/mL
Cc1ccc(CCNc2ncnc3ccsc23)cc1		luminescence		Mycobacterium bovis BCG		MIC50		>50 µM
O=C(C1CCN(c2nnc(-n3cccc3)s2)CC1)N1CCC(Cc2ccccc2)CC1		fluorescence	DprE1 mutant (E221Q)	Mycobacterium bovis BCG		MIC		25 µM
COc1c(NC(=O)c2ccc(NC(=O)c3ccc(NC(=O)[C@H](Cc4cn[nH]n4)NC(=O)c4ccc(NC(=O)/C(C)=C/c5ccc(O)cc5)cc4)cc3F)c(OC)c2O)ccc(C(=O)O)c1O		resazurin		Mycobacterium luteus		MIC	130.21	0.031 µg/mL
FC(F)(F)Oc1ccc(CCNc2ncnc3cc(Cl)ccc23)cc1		luminescence		Mycobacterium bovis BCG		MIC50		>20 µM
CCc1nc2cc(F)ccn2c1C(=O)NCc1ccc(N2CCN(c3ccc(OC(C)C)cc3)[C@@H](C)C2)c(F)c1.Cl		fluorescence		Mycobacterium avium	0.0071 µM	inhibition		85%
FC(F)(F)Oc1ccc(Oc2ccc(Nc3ncnc4cc(Cl)ccc34)cc2)cc1		luminescence		Mycobacterium bovis BCG		MIC50		>20 µM
CC[C@H]1OC(=O)[C@H](C)[C@@H](O[C@H]2C[C@@](C)(OC)[C@@H](O)[C@H](C)O2)[C@H](C)[C@@H](O[C@@H]2O[C@H](C)C[C@H](N(C)C)[C@H]2O)[C@](C)(O)C[C@@H](C)CN(C)[C@H](C)[C@@H](O)[C@]1(C)O				Mycobacterium fortuitum		MIC	ATCC 6841	>8 µg/mL
NC[C@H]1O[C@H](O[C@H]2[C@H](O)[C@@H](O[C@H]3O[C@H](CO)[C@@H](O)[C@H](N)[C@H]3O)[C@H](N)C[C@@H]2N)[C@H](O)[C@@H](O)[C@@H]1O				Mycobacterium fortuitum		MIC	ATCC 6841	64 µg/mL
CO[C@H]1/C=C/O[C@@]2(C)Oc3c(C)c(O)c4c(O)c(c5c(c4c3C2=O)NC2(CCN(CC(C)C)CC2)N=5)=NC(=O)/C(C)=C\C=C\[C@H](C)[C@H](O)[C@@H](C)[C@@H](O)[C@@H](C)[C@H](OC(C)=O)[C@@H]1C				Mycobacterium avium intracellulare		MIC	12-Feb	0.25 µg/mL
Cc1ccc2oc(=S)n(-c3ccc(C(F)(F)F)cc3)c(=S)c2c1	14 d			Mycobacterium kansasii		MIC	My 235/80	16 µM
CCCCCc1ccc(NC(=O)NNC(=O)c2ccncc2)cc1	21 d	broth dilution		Mycobacterium kansasii		MIC100	My 235/80	125 µM
CCCCCCCC1OC(c2ccncc2)=NN1C(C)=O		agar		Mycobacterium intracellulare		MIC		>100 µg/mL
CCc1nc2ccc(Cl)cn2c1C(=O)NCc1ccc(N2CCN(c3ccc(OC(F)(F)F)cc3)[C@@H](C)C2)c(F)c1F.Cl		fluorescence		Mycobacterium avium	0.011 µM	inhibition		85%
FC(F)(F)c1ccc(Oc2ccccc2Nc2ncnc3ccccc23)cc1		luminescence		Mycobacterium bovis BCG		MIC50		>50 µM
CCC1OC(c2ccncc2)=NN1C(C)=O		agar		Mycobacterium intracellulare		MIC		>100 µg/mL
FC(F)(F)Oc1cccc(CNc2ncnc3ccccc23)c1		luminescence		Mycobacterium bovis BCG		MIC50		>20 µM
CCCCc1ccc(NC(=O)NNC(=O)c2ccncc2)cc1	21 d	broth dilution		Mycobacterium kansasii		MIC100	My 6509/96	62.5 µM
CN(C)c1ccc(CCNc2ncnc3ccsc23)cc1		luminescence		Mycobacterium bovis BCG		MIC50		>50 µM
CO[C@@]1(NC(=O)CSCC#N)C(=O)N2C(C(=O)O)=C(CSc3nnnn3C)CS[C@@H]21				Mycobacterium fortuitum		MIC	1047	12.5 µg/mL
Clc1ccc(-c2nc3ccc(Nc4ncnc5ccccc45)cc3o2)cc1		luminescence		Mycobacterium bovis BCG		MIC50		>50 µM
Cc1ccc2oc(=S)n(-c3ccccc3)c(=S)c2c1	21 d			Mycobacterium kansasii		MIC	My 235/80	4 µM
FC(F)(F)Oc1ccc(Oc2ccc(Nc3ncnc4ccsc34)cc2)cc1		luminescence		Mycobacterium bovis BCG		MIC50		>20 µM
COc1c(NC(=O)c2ccc(NC(=O)c3c(F)cc(NC(=O)[C@H](Cc4cn[nH]n4)NC(=O)c4ccc(NC(=O)/C(C)=C/c5ccc(O)cc5)cc4)cc3F)c(OC)c2O)ccc(C(=O)O)c1O		resazurin		Mycobacterium luteus		MIC	130.21	0.25 µg/mL
Fc1ccc2c(Nc3ccc(Oc4ccccc4)cc3)ncnc2c1		luminescence		Mycobacterium bovis BCG		MIC50		>20 µM
C[C@@H]1CN(c2c(F)c(N)c3c(=O)c(C(=O)O)cn(C4CC4)c3c2F)C[C@H](C)N1		broth dilution / visual reading		Mycobacterium intracellulare		MIC	ATCC 13950	0.3 µg/mL
CC(C)(C)c1ccc(CCNc2ncnc3ccccc23)cc1		luminescence		Mycobacterium bovis BCG		MIC50		>20 µM
O=c1oc2ccc(F)cc2c(=S)n1-c1ccc(F)cc1	21 d			Mycobacterium kansasii		MIC	6509/96	8 µM
CC(C)Oc1ccc(-c2ccc(Nc3ncnc4ccccc34)cc2)cc1		luminescence		Mycobacterium bovis BCG		MIC50		>10 µM
CCc1nc2ccc(Cl)cn2c1C(=O)NCc1ccc(OC2CCC(Oc3ccc(OC(F)(F)F)cc3)CC2)c(F)c1.Cl		fluorescence		Mycobacterium avium	0.15 µM	inhibition		85%
FC(F)(F)c1ccc(CCNc2ncnc3ccsc23)cc1		luminescence		Mycobacterium bovis BCG		MIC50		>50 µM
CN[C@@H]1[C@H](O[C@H]2[C@H](O[C@H]3[C@H](O)[C@@H](O)[C@H](N=C(N)N)[C@@H](O)[C@@H]3N=C(N)N)O[C@@H](C)[C@]2(O)C=O)O[C@@H](CO)[C@H](O)[C@H]1O				Mycobacterium avium complex		MIC	N-314 (HIV-)	4 µg/mL

The first 9 rows once more:

structure	setting	method	changes	agent	tested at	read-out	strain or isolate	value
CC[C@H]1OC(=O)[C@H](C)[C@@H](O[C@H]2C[C@@](C)(OC)[C@@H](O)[C@H](C)O2)[C@H](C)[C@@H](O[C@@H]2O[C@H](C)C[C@H](N(C)C)[C@H]2O)[C@](C)(O)C[C@@H](C)CN(C)[C@H](C)[C@@H](O)[C@]1(C)O		broth dilution / visual reading		Mycobacterium abscessus		MIC100	DSM44196	1–2 µg/mL
CC(C)N=c1cc2n(-c3ccc(Cl)cc3)c3ccccc3nc-2cc1Nc1ccc(Cl)cc1		fluorescence		Mycobacterium scrofulaceum		MIC90		0.292 µg/mL
CCCCCCc1ccc(NC(=O)NNC(=O)c2ccncc2)cc1	14 d	broth dilution		Mycobacterium kansasii		MIC100	My 235/80	125 µM
O=c1oc2ccc(Br)cc2c(=S)n1-c1ccc(Cl)c(Cl)c1	14 d			Mycobacterium kansasii		MIC	6509/96	4 µM
O=C(NNC(=O)c1ccncc1)Nc1ccc(Cl)c(C(F)(F)F)c1	7 d	broth dilution		Mycobacterium kansasii		MIC100	My 235/80	62.5 µM
CC(C)(C)c1ccc(CCNc2ncnc3sccc23)cc1		luminescence		Mycobacterium bovis BCG		MIC50		>20 µM
Cc1ccc2oc(=O)n(-c3cccc(F)c3)c(=S)c2c1	14 d			Mycobacterium kansasii		MIC	6509/96	16 µM
CC1COc2c(N3CCN(C)CC3)c(F)cc3c(=O)c(C(=O)O)cn1c23				Mycobacterium fortuitum		MBC	ATCC 6841	4 µg/mL
NC[C@@H]1O[C@H](O[C@H]2[C@@H](O)[C@H](O[C@@H]3[C@@H](O)[C@H](N)C[C@H](N)[C@H]3O[C@H]3O[C@H](CN)[C@@H](O)[C@H](O)[C@H]3N)O[C@@H]2CO)[C@H](N)[C@@H](O)[C@@H]1O				Mycobacterium fortuitum		MIC90	31 isolates	16 µg/mL

An empty or dashed field is not shown. Rows are shuffled and stem from different studies. Two numbers with a dash give a range or band. Percent inhibition refers to the dose given; in toxicity tests it is the harm to the cells.